Ends that are not written are not given here.

Data on 1 substance can be found in patent US20110224133A1 (University of Southern California, priority 2008, published 2011).

The experiment concerns various human lymphoma cells. Nature of the experiment: Cell death in virus-associated and non-virus-associated lymphoma cells. The following applies: 30 or 50 μM peptide overnight.

Regarding “RRRQRRKKRGY-G-FVNLLFLVVE (RRRQRRKKRGYGFVNLLFLVVE; not fully specified (some residues); also: retro-inverso D-amino acids) [K-α2]”, the “cell death, KSHV-infected PEL cells (BCBL1, BCP-1, BC-3)” value is given as “primarily targeted” and the “cell death, KSHV/EBV-coinfected PEL cells (BC-1, JSC-1), EBV-immortalized Bob-B cells, non-virus-associated lymphoma cells (BJAB, K562, Jurkat-T)” value is on record as “not”.
